Patent US7749983B2, “Metabolically stable alkoxyalkyl esters of antiviral or antiproliferative phosphonates, nucleoside phosphonates and nucleoside phosphates” (priority 2006, dated 2010)

How the values were obtained:
Type in all cases: cell-based
[1] = test system: vaccinia virus strain, Copenhagen
[2] = test system: cowpox virus, strain Brighton
[3] = test system: Ectromelia Virus (ECTV, MOS strain)

Row | Compound | Vaccinia Copenhagen SI (Selectivity Index) = CC50/EC50 [1] | Cowpox Brighton SI (Selectivity Index) = CC50/EC50 [2] | Ectromelia Virus SI [3]
1 | 14-methyl-pentadecyloxypropyl cidofovir [Compound 14M-PDP-CDV] | 129 | 139 | 137
2 | 17-methyl-octadecyloxyethyl cidofovir [Compound 17M-ODE-CDV] | 469 | 300 | 54
3 | CC(C)CCCCCCCCCCCCCCOCCOP(=O)(O)CO[C@H](CO)Cn1cnc2c(N)ncnc21 [15M-HDE-HPMPA, 3-(15-methylhexadceyloxy)ethyl (S)-HPMPA] | – | – | 3,588
4 | CC(C)CCCCCCCCCCCCCCOCCCOP(=O)(O)CO[C@H](CO)Cn1cnc2c(N)ncnc21 [15M-HDP-(S)-HPMPA, 3-(15-methylhexadecyloxy)propyl (S)-HPMPA] | 2,292 | 529 | –
5 | CC(C)CCCCCCCCCCCCCCCCOCCOP(=O)(O)CO[C@H](CO)Cn1cnc2c(N)ncnc21 [17M-ODE-(S)-HPMPA, 2-(17-methyloctadecyloxy)ethyl (S)-HPMPA] | 89 | 73 | –
6 | CC(C)CCCCCCCCCCCOCCCOP(=O)(O)CO[C@H](CO)Cn1ccc(N)nc1=O [Compound 12M-TrDP-CDV, 12-methyl-tridecyloxypropyl cidofovir] | 63 | 49 | 57
7 | CC(C)CCCCCCCCCCCCOCCCOP(=O)(O)CO[C@H](CO)Cn1ccc(N)nc1=O [Compound 13M-TDP-CDV, 13-methyl-tetradecyloxypropyl cidofovir] | 315 | 205 | 161
8 | CC(C)CCCCCCCCCCCCCCOCCCOP(=O)(O)CO[C@H](CO)Cn1ccc(N)nc1=O [Compound 15M-HDP-CDV, 15-methyl-hexadecyloxypropyl cidofovir] | 152 | 45 | 391
9 | CCCCCCCCCCCCCCCCOCCOP(=O)(O)COC(CO)Cn1cnc2c(N)ncnc21 (centres unmarked) [HDE-HPMPA, reference compound] | – | – | 50
10 | CCCCCCCCCCCCCCCCOCCCOP(=O)(O)CO[C@H](CO)Cn1cnc2c(N)ncnc21 [HDP-(S)-HPMPA, reference compound] | 3,180 | 1767 | –
11 | CCCCCCCCCCCCCCCCOCCCOP(=O)(O)CO[C@H](CO)Cn1ccc(N)nc1=O [HDP-CDV, hexadecyloxypropyl-CDV, reference compound] | – | – | 42
12 | CCCCCCCCCCCCCCCCCCOCCOP(=O)(O)CO[C@H](CO)Cn1cnc2c(N)ncnc21 [ODE-(S)-HPMPA, reference compound] | 263 | 175 | –
